US20240226228A1, “ANTIMICROBIAL PEPTOID HAVING IMPROVED SELECTIVITY AND ANTIMICROBIAL COMPOSITION COMPRISING SAME” (priority 2021, published 2024)
Where a SMILES comes first, the peptide text is derived from it. [ ]: non-standard residue; d: D form. Gly(N(CH2)2(3-indolyl)) = O=C(O)CNCCc1c[nH]c2ccccc12; Gly(N-CH2CH2-imidazol-4-yl) = O=C(O)CNCCc1c[nH]cn1; Nspe = C[C@H](NCC(=O)O)c1ccccc1; Nphe = O=C(O)CNCc1ccccc1; Nlys = NCCCCNCC(=O)O

System: red blood cells / E. coli
Assay: Analysis of selectivity of peptoid (HD10 divided by MIC against E. coli)
Conditions: for Selectivity [HD10/MIC (E. coli)]: Tables 11-13; for Selectivity: HD10 divided by MIC against E. coli

| Structure (SMILES) | Selectivity [HD10/MIC (E. coli)] | Selectivity |
| --- | --- | --- |
| C[C@@H](c1ccccc1)N(CC(N)=O)C(=O)CN(C(=O)CN(CCCCN)C(=O)CN(C(=O)CN(C(=O)CN(CCCCN)C(=O)CN(C(=O)CN(C(=O)CN(CCCCN)C(=O)CN(C(=O)CN(C(=O)CN(CCCCN)C(=O)CNCCc1c[nH]c2ccccc12)[C@@H](C)c1ccccc1)[C@@H](C)c1ccccc1)[C@@H](C)c1ccccc1)[C@@H](C)c1ccccc1)[C@@H](C)c1ccccc1)[C@@H](C)c1ccccc1)[C@@H](C)c1ccccc1 [Peptoid 3] | 1 | – |
| C[C@@H](c1ccccc1)N(CC(=O)N(CCCCN)CC(=O)N(CC(=O)N(CC(=O)N(CCCCN)CC(=O)N(CC(=O)N(CC(=O)N(CCCCN)CC(=O)N(CC(=O)N(CC(=O)N(CCc1c[nH]c2ccccc12)CC(N)=O)[C@@H](C)c1ccccc1)[C@@H](C)c1ccccc1)[C@@H](C)c1ccccc1)[C@@H](C)c1ccccc1)[C@@H](C)c1ccccc1)[C@@H](C)c1ccccc1)C(=O)CN(C(=O)CNCCCCN)[C@@H](C)c1ccccc1 [Peptoid 4] (H-[Nlys][Nspe][Nspe][Nlys][Nspe][Nspe][Nlys][Nspe][Nspe][Nlys][Nspe][Nspe][Gly(N(CH2)2(3-indolyl))]-NH2) | <0.5 | – |
| C[C@@H](c1ccccc1)N(CC(=O)N(CCCCN)CC(=O)N(CC(=O)N(CC(=O)N(CCCCN)CC(=O)N(CC(=O)N(CC(=O)N(CCCCN)CC(=O)N(CC(=O)N(CC(=O)N(CCc1c[nH]c2ccccc12)CC(N)=O)[C@@H](C)c1ccccc1)[C@@H](C)c1ccccc1)[C@@H](C)c1ccccc1)[C@@H](C)c1ccccc1)[C@@H](C)c1ccccc1)[C@@H](C)c1ccccc1)C(=O)CN(C(=O)CN(CCCCN)C(=O)CNCCc1c[nH]c2ccccc12)[C@@H](C)c1ccccc1 [Peptoid 5] (H-[Gly(N(CH2)2(3-indolyl))][Nlys][Nspe][Nspe][Nlys][Nspe][Nspe][Nlys][Nspe][Nspe][Nlys][Nspe][Nspe][Gly(N(CH2)2(3-indolyl))]-NH2) | <0.3 | – |
| C[C@@H](c1ccccc1)N(CC(N)=O)C(=O)CN(C(=O)CN(CCCCN)C(=O)CN(C(=O)CN(C(=O)CN(CCCCN)C(=O)CN(C(=O)CN(C(=O)CN(CCCCN)C(=O)CN(C(=O)CN(C(=O)CN(CCCCN)C(=O)CN(CCc1c[nH]c2ccccc12)C(=O)CNCCc1c[nH]c2ccccc12)[C@@H](C)c1ccccc1)[C@@H](C)c1ccccc1)[C@@H](C)c1ccccc1)[C@@H](C)c1ccccc1)[C@@H](C)c1ccccc1)[C@@H](C)c1ccccc1)[C@@H](C)c1ccccc1 [Peptoid 6] | 0.4 | – |
| C[C@@H](c1ccccc1)N(CC(N)=O)C(=O)CN(C(=O)CN(CCCCN)C(=O)CN(C(=O)CN(CCCCN)C(=O)CN(CCCCN)C(=O)CN(C(=O)CN(C(=O)CN(CCCCN)C(=O)CN(C(=O)CN(C(=O)CN(CCCCN)C(=O)CN(CCc1c[nH]c2ccccc12)C(=O)CNCCc1c[nH]c2ccccc12)[C@@H](C)c1ccccc1)[C@@H](C)c1ccccc1)[C@@H](C)c1ccccc1)[C@@H](C)c1ccccc1)[C@@H](C)c1ccccc1)[C@@H](C)c1ccccc1 [Peptoid 35] | 6.6 | – |
| C[C@@H](c1ccccc1)N(CC(N)=O)C(=O)CN(C(=O)CN(CCCCN)C(=O)CN(C(=O)CN(C(=O)CN(CCCCN)C(=O)CN(C(=O)CN(C(=O)CN(CCCCN)C(=O)CN(C(=O)CN(CCCCN)C(=O)CN(CCCCN)C(=O)CN(CCc1c[nH]c2ccccc12)C(=O)CNCCc1c[nH]c2ccccc12)[C@@H](C)c1ccccc1)[C@@H](C)c1ccccc1)[C@@H](C)c1ccccc1)[C@@H](C)c1ccccc1)[C@@H](C)c1ccccc1)[C@@H](C)c1ccccc1 [Peptoid 36] | 4.9 | – |
| C[C@@H](c1ccccc1)N(CC(=O)N(CCCCN)CC(=O)N(CC(=O)N(CC(=O)N(CCCCN)CC(=O)N(CC(=O)N(CC(=O)N(CCCCN)CC(=O)N(CC(=O)N(CC(=O)N(CC(N)=O)Cc1ccccc1)[C@@H](C)c1ccccc1)[C@@H](C)c1ccccc1)[C@@H](C)c1ccccc1)[C@@H](C)c1ccccc1)[C@@H](C)c1ccccc1)[C@@H](C)c1ccccc1)C(=O)CN(C(=O)CN(CCCCN)C(=O)CNCc1ccccc1)[C@@H](C)c1ccccc1 [Peptoid 42] (H-[Nphe][Nlys][Nspe][Nspe][Nlys][Nspe][Nspe][Nlys][Nspe][Nspe][Nlys][Nspe][Nspe][Nphe]-NH2) | <0.1 | – |
| C[C@@H](c1ccccc1)N(CC(N)=O)C(=O)CN(C(=O)CN(CCCCN)C(=O)CN(C(=O)CN(C(=O)CN(CCCCN)C(=O)CN(C(=O)CN(C(=O)CN(CCCCN)C(=O)CN(C(=O)CN(C(=O)CN(CCCCN)C(=O)CN(Cc1ccccc1)C(=O)CNCc1ccccc1)[C@@H](C)c1ccccc1)[C@@H](C)c1ccccc1)[C@@H](C)c1ccccc1)[C@@H](C)c1ccccc1)[C@@H](C)c1ccccc1)[C@@H](C)c1ccccc1)[C@@H](C)c1ccccc1 [Peptoid 43] | <0.2 | – |
| C[C@@H](c1ccccc1)N(CC(N)=O)C(=O)CN(CCCCN)C(=O)CN(C(=O)CN(C(=O)CN(CCCCN)C(=O)CN(C(=O)CN(C(=O)CN(CCCCN)C(=O)CN(C(=O)CN(CCCCN)C(=O)CN(CCCCN)C(=O)CN(C(=O)CNCCc1c[nH]c2ccccc12)[C@@H](C)c1ccccc1)[C@@H](C)c1ccccc1)[C@@H](C)c1ccccc1)[C@@H](C)c1ccccc1)[C@@H](C)c1ccccc1)[C@@H](C)c1ccccc1 [Peptoid 61] | 3.1 | – |
| C[C@@H](c1ccccc1)N(CC(N)=O)C(=O)CN(CCCCN)C(=O)CN(C(=O)CN(C(=O)CN(CCCCN)C(=O)CN(C(=O)CN(CCCCN)C(=O)CN(CCCCN)C(=O)CN(C(=O)CN(C(=O)CN(CCCCN)C(=O)CN(C(=O)CNCCc1c[nH]c2ccccc12)[C@@H](C)c1ccccc1)[C@@H](C)c1ccccc1)[C@@H](C)c1ccccc1)[C@@H](C)c1ccccc1)[C@@H](C)c1ccccc1)[C@@H](C)c1ccccc1 [Peptoid 62] | 5.7 | – |
| C[C@@H](c1ccccc1)N(CC(N)=O)C(=O)CN(CCCCN)C(=O)CN(C(=O)CN(CCCCN)C(=O)CN(CCCCN)C(=O)CN(C(=O)CN(C(=O)CN(CCCCN)C(=O)CN(C(=O)CN(C(=O)CN(CCCCN)C(=O)CN(C(=O)CNCCc1c[nH]c2ccccc12)[C@@H](C)c1ccccc1)[C@@H](C)c1ccccc1)[C@@H](C)c1ccccc1)[C@@H](C)c1ccccc1)[C@@H](C)c1ccccc1)[C@@H](C)c1ccccc1 [Peptoid 63] | 6.8 | – |
| C[C@@H](c1ccccc1)N(CC(=O)N(CCCCN)CC(=O)N(CC(=O)N(CC(=O)N(CCCCN)CC(=O)N(CC(=O)N(CC(=O)N(CCCCN)CC(=O)N(CC(=O)N(CC(=O)N(CCCCN)CC(=O)N(CCCCN)CC(N)=O)[C@@H](C)c1ccccc1)[C@@H](C)c1ccccc1)[C@@H](C)c1ccccc1)[C@@H](C)c1ccccc1)[C@@H](C)c1ccccc1)[C@@H](C)c1ccccc1)C(=O)CNCCc1c[nH]c2ccccc12 [Peptoid 64] (H-[Gly(N(CH2)2(3-indolyl))][Nspe][Nlys][Nspe][Nspe][Nlys][Nspe][Nspe][Nlys][Nspe][Nspe][Nlys][Nlys]-NH2) | 5.7 | – |
| C[C@@H](c1ccccc1)N(CC(N)=O)C(=O)CN(CCCCN)C(=O)CN(CCCCN)C(=O)CN(C(=O)CN(C(=O)CN(CCCCN)C(=O)CN(C(=O)CN(C(=O)CN(CCCCN)C(=O)CN(CCc1c[nH]c2ccccc12)C(=O)CN(CCc1c[nH]c2ccccc12)C(=O)CNCCc1c[nH]cn1)[C@@H](C)c1ccccc1)[C@@H](C)c1ccccc1)[C@@H](C)c1ccccc1)[C@@H](C)c1ccccc1 [Peptoid 72] (H-[Gly(N-CH2CH2-imidazol-4-yl)][Gly(N(CH2)2(3-indolyl))][Gly(N(CH2)2(3-indolyl))][Nlys][Nspe][Nspe][Nlys][Nspe][Nspe][Nlys][Nlys][Nspe]-NH2) | – | 14.1 |
| C[C@@H](c1ccccc1)N(CC(N)=O)C(=O)CN(CCCCN)C(=O)CN(CCCCN)C(=O)CN(C(=O)CN(C(=O)CN(CCCCN)C(=O)CN(C(=O)CN(C(=O)CN(CCc1c[nH]cn1)C(=O)CN(CCc1c[nH]c2ccccc12)C(=O)CN(CCc1c[nH]c2ccccc12)C(=O)CNCCCCN)[C@@H](C)c1ccccc1)[C@@H](C)c1ccccc1)[C@@H](C)c1ccccc1)[C@@H](C)c1ccccc1 [Peptoid 73] (H-[Nlys][Gly(N(CH2)2(3-indolyl))][Gly(N(CH2)2(3-indolyl))][Gly(N-CH2CH2-imidazol-4-yl)][Nspe][Nspe][Nlys][Nspe][Nspe][Nlys][Nlys][Nspe]-NH2) | – | >15.9 |
| C[C@@H](c1ccccc1)N(CC(N)=O)C(=O)CN(CCCCN)C(=O)CN(CCCCN)C(=O)CN(C(=O)CN(C(=O)CN(CCc1c[nH]cn1)C(=O)CN(C(=O)CN(C(=O)CN(CCCCN)C(=O)CN(CCc1c[nH]c2ccccc12)C(=O)CN(CCc1c[nH]c2ccccc12)C(=O)CNCCCCN)[C@@H](C)c1ccccc1)[C@@H](C)c1ccccc1)[C@@H](C)c1ccccc1)[C@@H](C)c1ccccc1 [Peptoid 74] (H-[Nlys][Gly(N(CH2)2(3-indolyl))][Gly(N(CH2)2(3-indolyl))][Nlys][Nspe][Nspe][Gly(N-CH2CH2-imidazol-4-yl)][Nspe][Nspe][Nlys][Nlys][Nspe]-NH2) | – | 13 |
| C[C@@H](c1ccccc1)N(CC(N)=O)C(=O)CN(CCCCN)C(=O)CN(CCc1c[nH]cn1)C(=O)CN(C(=O)CN(C(=O)CN(CCCCN)C(=O)CN(C(=O)CN(C(=O)CN(CCCCN)C(=O)CN(CCc1c[nH]c2ccccc12)C(=O)CN(CCc1c[nH]c2ccccc12)C(=O)CNCCCCN)[C@@H](C)c1ccccc1)[C@@H](C)c1ccccc1)[C@@H](C)c1ccccc1)[C@@H](C)c1ccccc1 [Peptoid 75] (H-[Nlys][Gly(N(CH2)2(3-indolyl))][Gly(N(CH2)2(3-indolyl))][Nlys][Nspe][Nspe][Nlys][Nspe][Nspe][Gly(N-CH2CH2-imidazol-4-yl)][Nlys][Nspe]-NH2) | – | 10.8 |
| C[C@@H](c1ccccc1)N(CC(N)=O)C(=O)CN(CCc1c[nH]cn1)C(=O)CN(CCCCN)C(=O)CN(C(=O)CN(C(=O)CN(CCCCN)C(=O)CN(C(=O)CN(C(=O)CN(CCCCN)C(=O)CN(CCc1c[nH]c2ccccc12)C(=O)CN(CCc1c[nH]c2ccccc12)C(=O)CNCCCCN)[C@@H](C)c1ccccc1)[C@@H](C)c1ccccc1)[C@@H](C)c1ccccc1)[C@@H](C)c1ccccc1 [Peptoid 76] (H-[Nlys][Gly(N(CH2)2(3-indolyl))][Gly(N(CH2)2(3-indolyl))][Nlys][Nspe][Nspe][Nlys][Nspe][Nspe][Nlys][Gly(N-CH2CH2-imidazol-4-yl)][Nspe]-NH2) | – | >15.9 |
